Measured values published in paper PMC11409218, “Metal(triphenylphosphine)-atovaquone Complexes: Synthesis, Antimalarial Activity, and Suppression of Heme Detoxification” (Inorganic Chemistry, 2024).

Each compound was assayed on P. falciparum 3D7 (CQ-susceptible strain) (assay: Antiplasmodial activity, asexual blood stages, HRP2 ELISA-based assay, 3D7 strain). Conditions: CC50 (J774)/IC50(3D7).
Assay type: cell-based, Plasmodium falciparum
Description: We determined the half-maximal inhibitory concentration (IC50) of the complexes against asexual blood stages of P. falciparum using CQ-susceptible and CQ-resistant strains (Table 2). […]. Two strains were selected for the tests: the CQ-susceptible 3D7 strain (isolated in West Africa; obtained from MR4, VA, USA), and the CQ-resistant W2 strain (isolated in Indochina; obtained from MR4, VA, USA). Both were maintained in culture in RPMI 1640 (Invitrogen, Paisley, UK), supplemented with 10% human serum (Abcys S.A. Paris, France), and buffered with 25 mM HEPES and 25 mM NaHCO3. Parasites were grown in A-positive human blood (Etablissement Français du Sang, Marseille, France) in controlled atmospheric conditions that consisted of 10% O2, 5% CO2, and 85% N2 at 37 °C with 95% humidity. […]
For in vitro isotopic microtests, 25 μL/well of antimalarial drug and 200 μL/well of parasitized red blood cell suspension (final parasitemia 0.5%, final hematocrit 1.5%) were distributed into 96-well plates. The plates were incubated for 72 h at 37 °C in 85% N2, 10% O2, 5% CO2. After freezing and then thawing, the hemolyzed cultures were homogenized by vortexing the plates. The drug susceptibility assay was performed using the HRP2 ELISA-based assay of the Malaria Ag Celisa kit (ref KM2159, Cellabs PTY LDT, Brookvale, Australia), as described previously.[72] […] […]. IC50 are expressed as means of at least 5 to 7 independent experiments.

Compound	Selectivity index (S.I.)
[Cl][Au].c1ccc(P(c2ccccc2)c2ccccc2)cc1 [AuClPPh3, [Au(PPh3)Cl], reference compound]	2.8
O=C1C([O][Cu]([PH](c2ccccc2)(c2ccccc2)c2ccccc2)[PH](c2ccccc2)(c2ccccc2)c2ccccc2)=C([C@H]2CC[C@H](c3ccc(Cl)cc3)CC2)C(=O)c2ccccc21 [Complex 3, [Cu(ATV)(PPh3)2]]	1175
[Ag(ATV)(PPh3)2] [Complex 1]	311
[Au(ATV)(PPh3)]·2H2O [Complex 2]	1333
